From PubChem BioAssay AID602399 (Sanford-Burnham Center for Chemical Genomics, 2012)
Only a part is listed here, and it is no random draw. Calls of active or inactive are those of the source. No stated cut-off is given here; in the data, active means inhibition above about 26%; inactive means the rest.

These compounds were tested on Nicotinate-nucleotide adenylyltransferase NadD (Staphylococcus aureus N315) (assay: S. aureus NadD enzyme activity blockers – biochemical, colorimetric, uHTS, primary screen (AID 602399)). Settings: purified NadD enzyme, colorimetric absorbance read-out; at 20 µM; stronger effect = higher value.
`O=[N+]([O-])c1ccc(O)c(/C=N/Nc2ccc([N+](=O)[O-])cc2[N+](=O)[O-])c1` was tested, and the inhibition was inactive: 6.79%.
For `O=[N+]([O-])c1ncn(CCn2cnc([N+](=O)[O-])n2)n1`, the inhibition was inactive: -1.42%.
With `CC(=O)NC(SC(=S)N(C)C)C(Cl)(Cl)Cl` (stereo not given) the inhibition was inactive: -6.38%.
For `O=[As](O)(c1ccccc1)c1ccc(O)cc1`, the inhibition was inactive: -9.96%.
With `C(Cc1nn[nH]n1)Cc1nn[nH]n1` the inhibition was inactive: -5.54%.
In the case of `Nc1ccc([As](=O)(O)c2ccc([N+](=O)[O-])cc2)cc1`, the inhibition is reported as inactive: -3.95%.
`O=C(OC1CN2CCC1CC2)c1cccc(Cl)c1` (stereo not given) was tested, and the inhibition was inactive: 4.52%.
With `COc1ccc(N)c([N+](=O)[O-])c1[N+](=O)[O-]` the inhibition was inactive: -0.468%.
In the case of `Nc1ccc(CCCCOc2ccccc2)cc1`, the inhibition is reported as inactive: 0.409%.
In the case of `O=P(Nc1ccccn1)(c1ccc(Br)cc1)c1ccc(Br)cc1`, the inhibition is reported as inactive: 3.96%.
In the case of `CN(C)C1(CNC(=O)c2ccc(Cl)c(S(N)(=O)=O)c2)CCCCC1`, the inhibition is reported as inactive: -7.57%.
With `C[C@H]1OP(=O)(Oc2ccccc2)[C@H](O)[C@H](O)[C@H]1N=[N+]=[N-]` (stereo not given in full) the inhibition was inactive: 1.89%.
`O=P(Nc1nc2ccccc2s1)(c1ccccc1)c1ccccc1` was tested, and the inhibition was inactive: -0.628%.
`CC(C)C(=O)NC(Sc1ccccc1)C(Cl)(Cl)Cl` (stereo not given) was tested, and the inhibition was inactive: 6.49%.
`O=P(Nc1nccs1)(c1ccccc1)c1ccccc1` was tested, and the inhibition was inactive: 0.636%.
For `c1nnnn1CCn1cnnn1`, the inhibition was inactive: 6.41%.
With `COC(=O)C1(C)COP(=O)(NCc2ccccc2)OC1` (stereo not given) the inhibition was inactive: -2.76%.
`CC(=O)c1ccc(N2CC2c2ccncc2)cc1` (stereo not given) was tested, and the inhibition was inactive: -6.58%.
In the case of `N#C/C(=C\c1ccc(N(CCBr)CCBr)cc1)C(N)=O`, the inhibition is reported as inactive: -3.08%.
With `C[C@H]1OP(=O)(Oc2ccccc2)C[C@@H]2O[C@@H]21` (stereo not given in full) the inhibition was inactive: -4.08%.
In the case of `C[C@@H]1C=CCP(=O)(Oc2ccccc2)O1` (stereo not given in full), the inhibition is reported as inactive: -2.65%.
`Cc1ccccc1CN(C)C(=O)COC(=O)C(O)(c1ccccc1)c1ccccc1` was tested, and the inhibition was inactive: -8.39%.
For `CC(=O)Nc1ccc(Oc2c([N+](=O)[O-])cc([N+](=O)[O-])cc2[N+](=O)[O-])cc1`, the inhibition was inactive: 7.34%.
`CC(=O)Nc1ccc([As](=O)(O)O)c(O)c1` was tested, and the inhibition was inactive: -2.35%.
`CCOc1ccc(C2=NCC(CBr)S2)cc1` (stereo not given) was tested, and the inhibition was inactive: -1.73%.
For `O=P1(Nc2nc3ccc(Cl)cc3s2)COc2ccccc2O1` (stereo not given), the inhibition was inactive: -0.515%.
In the case of `CCc1cc(O)c([N+](=O)[O-])c(C)c1[N+](=O)[O-]`, the inhibition is reported as inactive: -0.877%.
`CC(C)(C)C(=O)NC(Sc1ccccc1)C(Cl)(Cl)Cl` (stereo not given) was tested, and the inhibition was inactive: -4.39%.
In the case of `Cc1ccc(OP(=O)(Nc2ccccn2)Oc2ccc(C)cc2)cc1`, the inhibition is reported as inactive: -1.14%.
`CC(=O)NC(SC(=S)N(CC(C)C)CC(C)C)C(Cl)(Cl)Cl` (stereo not given) was tested, and the inhibition was inactive: -2.96%.
For `COC(=O)c1cc2c(s1)N=C(c1ccccc1)N(C)P2(=O)N1CCOCC1` (stereo not given), the inhibition was inactive: -1.29%.
For `CCC(=O)N1C2C3N(C(=O)CC)C1C1N(C(=O)CC)C(C(N1C(=O)CC)N3C(=O)CC)N2C(=O)CC`, the inhibition was inactive: 3.3%.
With `O=C(OC1CN2CCC1CC2)c1ccccc1` (stereo not given) the inhibition was inactive: -1.61%.
With `O=c1c2cc([N+](=O)[O-])ccc2[nH]c2c([N+](=O)[O-])cc([N+](=O)[O-])cc12` the inhibition was inactive: -1.95%.
For `CN(C)C(=O)Oc1noc2ccccc12`, the inhibition was inactive: 0.643%.
For `CC(NC(=O)COC(=O)C(O)(c1ccccc1)c1ccccc1)c1ccccc1` (stereo not given), the inhibition was inactive: -3.04%.
With `Cc1ccccc1OP(=O)(Nc1ccccn1)Oc1ccccc1C` the inhibition was inactive: -0.566%.
`CCNC(=S)/N=C(\N)N[N+](=O)[O-]` was tested, and the inhibition was inactive: -0.177%.
`O=C(NC1CCS(=O)(=O)C1)NP(=S)(Oc1ccccc1)Oc1ccccc1` (stereo not given) was tested, and the inhibition was inactive: -9.56%.
In the case of `Cc1ccc(NP(=O)(Oc2cccc(C)c2)Oc2cccc(C)c2)nc1`, the inhibition is reported as inactive: 4.29%.
`c1ccc(-c2nn[nH]n2)c(-c2nn[nH]n2)c1` was tested, and the inhibition was inactive: -4.53%.
`O=P1(N(CCCl)CCCl)OCCC2CCCCN21` (stereo not given) was tested, and the inhibition was inactive: 2.59%.
With `CCN(N=Nc1nonc1N)c1nonc1N` the inhibition was inactive: 0.552%.
In the case of `Nc1cccc2ccc([As](=O)(O)O)cc12`, the inhibition is reported as inactive: -1.62%.
In the case of `CCCC1OP(N)(=O)OCC1CC` (stereo not given), the inhibition is reported as inactive: 0.79%.
With `CC(=O)Nc1ccc([As](=O)(O)O)cc1` the inhibition was inactive: 1.97%.
`O=C(O)c1ccccc1[As](=O)(O)O` was tested, and the inhibition was inactive: -2.66%.
In the case of `O=P(Nc1nc2ccc(Cl)cc2s1)(c1ccccc1)c1ccccc1`, the inhibition is reported as inactive: 5.65%.
In the case of `CN(C)P(=O)(N(C)C)n1c(Nc2ccccc2)nnc1-c1ccccc1`, the inhibition is reported as inactive: -5.32%.
With `Cc1ccc(NP(=O)(Oc2ccccc2F)Oc2ccccc2F)nc1` the inhibition was inactive: 1.72%.
For `CN(C(=O)Cc1ccc(Cl)c(Cl)c1)[C@H]1CCCC[C@@H]1N1CCCC1`, the inhibition was inactive: -2.31%.
In the case of `Cc1cc(SC(NC(=O)c2ccc(F)cc2)C(Cl)(Cl)Cl)ncn1` (stereo not given), the inhibition is reported as inactive: -3.22%.
In the case of `CCOP(=O)(Nc1ccccc1)OCC`, the inhibition is reported as inactive: -0.986%.
For `Nc1cc(N)c2nonc2c1[N+](=O)[O-]`, the inhibition was inactive: -5.18%.
`CC(C)CC(=O)NC(Sc1ccc(Cl)cc1)C(Cl)(Cl)Cl` (stereo not given) was tested, and the inhibition was inactive: 0.849%.
In the case of `O=C(NC(Sc1ccncn1)C(Cl)(Cl)Cl)c1ccccc1` (stereo not given), the inhibition is reported as inactive: -5.35%.
With `Oc1ccccc1CNc1ccccn1` the inhibition was inactive: -6.14%.
In the case of `O=[N+]([O-])C1C(O)C(O)C([N+](=O)[O-])C(O)C1O` (stereo not given), the inhibition is reported as inactive: 6.63%.
For `NC(=O)c1cc([N+](=O)[O-])cc([N+](=O)[O-])c1N`, the inhibition was inactive: -3.67%.
`Cc1ccc(N/C(=N/P(=O)(N2CCOCC2)N2CCOCC2)N2CCOCC2)cc1` was tested, and the inhibition was inactive: -6.59%.
With `CN(C(=O)Cc1ccc(Cl)c(Cl)c1)[C@H]1CCCC[C@H]1N1CCCC1` the inhibition was inactive: 0.563%.
In the case of `Cc1ccc(OP(=O)(Nc2nccs2)Oc2ccc(C)cc2)cc1`, the inhibition is reported as inactive: -7.66%.
In the case of `COc1ccccc1OP(=O)(Nc1ccc(C)cn1)Oc1ccccc1OC`, the inhibition is reported as inactive: -8.19%.
For `CN1CCCC(OC(=O)C(c2ccccc2)c2ccccc2)C1` (stereo not given), the inhibition was inactive: -3.4%.
For `Clc1ccc(Cl)c(NC2=NCC(CBr)S2)c1` (stereo not given), the inhibition was inactive: 5.74%.
With `C[N+]1=C2C=CC=CC=C2SC12C([N+](=O)[O-])=CC([N+](=O)[O-])=C[C-]2[N+](=O)[O-]` (stereo not given) the inhibition was inactive: 11.7%.
`Nc1ccc([As](=O)(O)c2ccc(N)cc2)cc1` was tested, and the inhibition was inactive: -4.61%.
For `CCN(/C(=N/P(=O)(N1CCOCC1)N1CCOCC1)N1CCOCC1)c1ccc(OC)cc1`, the inhibition was inactive: 6.88%.
`CN(C)C(=O)OCCc1n(C)cc[n+]1C` was tested, and the inhibition was inactive: 3.22%.
In the case of `CC(C)c1nc(Nc2ccccc2)n(P(=O)(N(C)C)N(C)C)n1`, the inhibition is reported as inactive: -4.26%.
For `CC(C)=N/N=C(\N)N[N+](=O)[O-]`, the inhibition was inactive: -5.85%.
`CC1CCN(C(=O)Oc2c(Cl)cc(Cl)c3cccnc23)CC1` was tested, and the inhibition was inactive: 1.14%.
`c1cc(-c2nn[nH]n2)ccc1-c1nn[nH]n1` was tested, and the inhibition was inactive: -1.82%.
`COc1ccc(C2=NCC(CBr)S2)cc1` (stereo not given) was tested, and the inhibition was inactive: -5.1%.
With `O=[N+]([O-])c1cccc2n[nH]nc12` the inhibition was inactive: 3.54%.
`CC(=O)N1C2C3N(C(C)=O)C1C1N(C(C)=O)C(C(N1C(C)=O)N3C(C)=O)N2C(C)=O` was tested, and the inhibition was inactive: 3.94%.
With `CCc1nc2c(n1)c1c(non1O)c1c2no[n+]1[O-]` the inhibition was inactive: 8.98%.
With `O=[N+]([O-])c1cc([N+](=O)[O-])c(CCNc2ccccc2)c([N+](=O)[O-])c1` the inhibition was inactive: 3.77%.
For `Cc1ccc(NP(=O)(Oc2ccccc2)Oc2ccccc2)nc1`, the inhibition was inactive: -4.28%.
For `CC(C)(C)C(=O)NC(Sc1ccncn1)C(Cl)(Cl)Cl` (stereo not given), the inhibition was inactive: 0.519%.
For `O=[N+]([O-])c1ncn(CCn2ncnc2[N+](=O)[O-])n1`, the inhibition was inactive: 11.6%.
For `COC(=O)C1(C)COP(=O)(Nc2ccccc2)OC1` (stereo not given), the inhibition was inactive: -3.57%.
With `O=[N+]([O-])c1cccc(NC2=NCC(CBr)S2)c1` (stereo not given) the inhibition was inactive: -6.04%.
With `O=C(O)CNc1ccc([As](=O)(O)O)cc1` the inhibition was inactive: -7.7%.
`O=P1(N(CCCl)CCCl)OCCCS1` (stereo not given) was tested, and the inhibition was inactive: -1.33%.
`O=C(Nc1cc([As](=O)(O)O)ccc1O)c1ccccc1` was tested, and the inhibition was inactive: -6.91%.
In the case of `CCOC(=O)Nc1cccc([As](=O)(O)O)c1`, the inhibition is reported as inactive: -3.04%.
`O=[N+]([O-])c1ccc(Nc2ccc(Oc3ccc([N+](=O)[O-])cc3[N+](=O)[O-])cc2)c([N+](=O)[O-])c1` was tested, and the inhibition was inactive: 7.14%.
In the case of `O=P(Nc1ccccn1)(c1cccc2ccccc12)c1cccc2ccccc12`, the inhibition is reported as inactive: 14.9%.
With `Cc1cc(SC(NC=O)C(Cl)(Cl)Cl)ncn1` (stereo not given) the inhibition was inactive: 4.42%.
For `CC1CCNP(=O)(N(CCCl)CCCl)O1` (stereo not given), the inhibition was inactive: -6.54%.
With `CCOC(=O)Nc1ccc([As](=O)(O)O)c(O)c1` the inhibition was inactive: -3.75%.
For `O=C(O)C(O)c1ccc(N(CCCl)CCCl)cc1` (stereo not given), the inhibition was inactive: 0.685%.
In the case of `Cc1cc(SC(NC(=O)c2ccccc2)C(Cl)(Cl)Cl)nc(C(C)C)n1` (stereo not given), the inhibition is reported as inactive: 2.13%.
In the case of `CCCCOc1ccc(C(=O)NCC2(N3CCCCC3)CCCCC2)cc1OC`, the inhibition is reported as inactive: -4.41%.
For `COP(=O)(OC)N1CC1c1ccccc1` (stereo not given), the inhibition was inactive: -8.81%.
For `CCOC(=O)c1ccc(NC(=O)C(C)(CCl)SC)cc1` (stereo not given), the inhibition was inactive: -10.1%.
For `CSc1ccc(Nc2c([N+](=O)[O-])cc([N+](=O)[O-])cc2[N+](=O)[O-])cc1`, the inhibition was inactive: -4.41%.
For `O=C(OC1CN2CCC1CC2)c1cccc([N+](=O)[O-])c1` (stereo not given), the inhibition was inactive: -8.11%.
`CCC(C)N(CC(C)C)C(=S)SC(NC(C)=O)C(Cl)(Cl)Cl` (stereo not given) was tested, and the inhibition was inactive: -5.53%.
